According to paper PMC2582960, “A Structural Model of the Staphylococcus aureus ClfA–Fibrinogen Interaction Opens New Avenues for the Design of Anti-Staphylococcal Therapeutics” (PLoS Pathogens, 2008):
pKd: −log10 of the molar value.

Molecular target: GST-Fg γ^1–17 _(D16A) (human)
Test: ELISA; human Fg or GST fusion protein coated (1 µg/well); His-tagged ClfA added in increasing concentrations in HBS (10 mM HEPES, 100 mM NaCl, 3 mM EDTA, pH 7.4), 25°C, 1 h; bound ClfA detected with anti-His antibodies; apparent Kd

ClfA_(229–545) (clumping factor A, N2N3 domains) (from UniProt Q53653 229-545) (domain or fragment)
pKd: 7.46
